# Results: PubChem BioAssay AID1533 (PCMD, 2009)
# Chains of the proteins cited; added tags and fusions are not shown.
# UniProt P9WH09, whole entry, looked up: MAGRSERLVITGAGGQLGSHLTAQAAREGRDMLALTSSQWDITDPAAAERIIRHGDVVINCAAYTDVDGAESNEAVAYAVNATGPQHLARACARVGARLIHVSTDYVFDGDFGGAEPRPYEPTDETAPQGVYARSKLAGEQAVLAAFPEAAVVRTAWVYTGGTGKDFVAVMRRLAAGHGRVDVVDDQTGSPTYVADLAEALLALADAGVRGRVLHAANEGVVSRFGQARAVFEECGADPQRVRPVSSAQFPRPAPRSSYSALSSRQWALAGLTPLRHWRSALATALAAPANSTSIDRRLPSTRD
# UniProt P9WH11, whole entry, looked up: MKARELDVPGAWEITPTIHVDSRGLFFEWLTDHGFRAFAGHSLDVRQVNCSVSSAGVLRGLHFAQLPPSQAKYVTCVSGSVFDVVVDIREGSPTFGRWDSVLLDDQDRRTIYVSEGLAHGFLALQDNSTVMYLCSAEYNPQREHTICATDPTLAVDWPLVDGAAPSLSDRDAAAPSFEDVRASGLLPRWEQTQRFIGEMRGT
# The entries are a selection whose mix differs from that of the whole data set. Activity calls are given as the source filed them. Rule as the data show it: active = inhibition mostly above about 34% (no sharp cut-off); inconclusive = no clear call, values can overlap the other calls; inactive = mostly below about 22%.
# Molecular target: dTDP-4-dehydrorhamnose reductase (Mycobacterium tuberculosis (strain ATCC 25618 / H37Rv)) + dTDP-4-dehydrorhamnose 3,5-epimerase (Mycobacterium tuberculosis (strain ATCC 25618 / H37Rv)) (UniProt P9WH09+P9WH11)
# Assay: M. tuberculosis RmlC/RmlD coupled enzyme inhibitors, primary screen, biochemical, compound mixtures, 384-well, from 1536-well plates (AID 1533)
# Settings: RmlC+RmlD coupled enzyme assay, percent inhibition; primary screen in compound mixtures; at 3.6 µM; stronger effect = higher value
row,Structure (SMILES),inhibition
1,COP1(=S)c2c(C)nn(CCC#N)c2N=C(c2ccc(F)cc2)N1C (centres undefined),inactive: -4.66%
2,CP(=O)(Nc1ccc(SC(F)(F)F)cc1)Oc1ccc(Cl)cc1 (centres undefined),inactive: -14.7%
3,Cc1cccc(C)c1OP(C)(=O)Nc1ccc(SC(F)(F)F)cc1 (centres undefined),inactive: -14.8%
4,CP(=O)(Oc1ccccc1)OC(c1ccccc1)C(F)(F)F (centres undefined),inactive: -8.96%
5,O=C(COc1ccccc1)OC1CN2CCC1CC2 (centres undefined),inactive: 10.7%
6,CCc1ccc(OP(C)(=O)N2CCN(c3ccc([N+](=O)[O-])cc3)CC2)cc1 (centres undefined),inactive: -10.1%
7,Cc1cc(C)cc(OP(C)(=O)Nc2ccc(SC(F)(F)F)cc2)c1 (centres undefined),inactive: 20.1%
8,CCOC(=O)c1ccc(NC(=O)C(C)(CCl)SC)cc1 (centres undefined),inactive: -2.57%
9,CCOC(=O)c1ccc(NP(C)(=O)Oc2ccc(OC)cc2)cc1 (centres undefined),inactive: 14.2%
10,CCOP(C)(=S)SCC(=O)NC(C)C(=O)O (centres undefined),inactive: -4.24%
11,CP(=O)(Nc1ccccn1)Oc1ccc(Cl)cc1 (centres undefined),inactive: 19.1%
12,CCOC(=O)Nc1ccc([As](=O)(O)O)c(O)c1,inactive: 6.7%
13,Cc1cc(SC(NC(=O)c2ccccc2)C(Cl)(Cl)Cl)nc(C(C)C)n1 (centres undefined),inactive: 2.27%
14,CCOC(=O)Nc1cccc([As](=O)(O)O)c1,inactive: 23%
15,CP(=S)(Nn1cnnc1)Oc1ccccc1 (centres undefined),inactive: 11.7%
16,CP(=O)(Nc1ccccc1Br)Oc1ccccc1 (centres undefined),inactive: 6.53%
17,O=[N+]([O-])c1ccc(Nc2ccc(Oc3ccc([N+](=O)[O-])cc3[N+](=O)[O-])cc2)c([N+](=O)[O-])c1,inactive: -6.28%
18,Cc1cc(SC(NC=O)C(Cl)(Cl)Cl)ncn1 (centres undefined),inactive: 5.33%
19,O=P(Nc1ccccn1)(c1cccc2ccccc12)c1cccc2ccccc12,inactive: -5.01%
20,COc1ccccc1OP(C)(=O)Nc1ccccc1 (centres undefined),inactive: 0.83%
21,C[As](=O)(O)c1cccc(C(=O)O)c1,inactive: -0.84%
22,O=[As](O)(c1ccc(O)cc1)c1ccccc1O,inactive: 11.2%

row,Structure (SMILES),inhibition
1,O=[N+]([O-])c1ccc2c(c1)C=Nc1ccccc1O2,inactive: 11.5%
2,Cc1ccc2nc3c(c(C)c2c1)CC(C(Cl)Cl)S3 (centres undefined),inactive: 5.68%
3,Cc1ccc(OP(=O)(Nc2ccc([N+](=O)[O-])cn2)Oc2ccc(C)cc2)cc1,inactive: 90.7%
4,CC(C)(C)c1ccc(OP(C)(=O)Nc2ccc(SC(F)(F)F)cc2)cc1 (centres undefined),inactive: 1.31%
5,Cc1cccc(C)c1OP(C)(N)=O (centres undefined),inactive: 5.39%
6,COc1ccccc1OP(C)(=O)Nc1ccc(C)cc1 (centres undefined),inactive: -1.07%
7,CCOC(=O)c1ccc(NP(C)(=O)Oc2ccccc2)cc1 (centres undefined),inactive: -9.55%
8,Cc1cc(C)cc(OP(C)(N)=O)c1 (centres undefined),inactive: -12.9%
9,CC(C)NC(=O)NP(=O)(Oc1ccccc1)Oc1ccccc1,inactive: 12.5%
10,COc1ccccc1OP(C)(=O)Nc1cc(Cl)ccc1C (centres undefined),inactive: -10.8%
11,COc1ccc(OP(C)(=O)Nc2cccc(F)c2)cc1 (centres undefined),inactive: 17.4%
12,O=C(OC1CN2CCC1CC2)C12CC3CC(CC(C3)C1)C2 (centres undefined),inactive: 0.36%
13,Cc1cc(=O)[nH]c(N[N+](=O)[O-])n1,inactive: 32.1%
14,CCN(CC)CCCOC(=O)C(O)(c1ccccc1)c1ccccc1,inactive: -10.4%
15,COc1ccc2nc(NP(=O)(c3ccccc3)c3ccccc3)sc2c1,inactive: 7.12%
16,COc1cc(I)ccc1[As](=O)(O)O,inactive: -9.27%
17,COc1ccc(N/C(=N/P(=O)(N2CCOCC2)N2CCOCC2)N2CCOCC2)cc1,inactive: -5.79%
18,O=[As](O)(O)c1cccnc1,inactive: 3.9%
19,COc1cc(C(=O)NCC2(N3CCOCC3)CCCCC2)cc(Cl)c1OC(C)C,inactive: -11.2%
20,O=C(OC1CN2CCC1CC2)c1ccc(Cl)cc1 (centres undefined),inactive: 12.2%
21,CCOC(=O)c1ccc(NP(C)(=O)Oc2cc(C)cc(C)c2)cc1 (centres undefined),inactive: -3.2%
22,Cc1cccc(OCC(=O)OC2CN3CCC2CC3)c1 (centres undefined),inactive: -5.93%

row,Structure (SMILES),inhibition
1,O=[As](O)(c1cccc(O)c1)c1cccc(O)c1,inactive: -11.5%
2,Cc1ccc(C)c(NP(C)(=O)Oc2ccccc2)c1 (centres undefined),inactive: 9.88%
3,CCCOP(=S)(Nc1nc(N)cc(=O)[nH]1)OCCC,inactive: 5.83%
4,Cc1cc(C)cc(OP(C)(=O)Nc2ccccn2)c1 (centres undefined),inactive: 10.9%
5,CP(=O)(Nc1cccc(Br)c1)Oc1ccccc1 (centres undefined),inactive: -11.5%
6,Nc1cccc2c([As](=O)(O)O)cccc12,inactive: -6.37%
7,CS(=O)(=O)c1cc([N+](=O)[O-])c2no[n+]([O-])c2c1,inactive: -10.9%
8,O=C(O)c1cccc(Nc2c([N+](=O)[O-])cc([N+](=O)[O-])cc2[N+](=O)[O-])c1,inactive: -27.2%
9,CCOP1(=S)c2c(C)nn(CCC#N)c2N=C(c2ccccc2F)N1C (centres undefined),inactive: 3.95%
10,O=P(Nc1nccs1)(Oc1ccccc1)Oc1ccccc1,inactive: -5.05%
11,O=C(O)COc1ccc([As](=O)(O)O)cc1[N+](=O)[O-],inactive: 11%
12,Nc1ccccc1[As](=O)(O)c1ccccc1,inactive: 3.41%
13,NC(=O)Nc1ccc([As](=O)(O)O)cc1,inactive: 2.24%
14,CC1=NCCc2c1[nH]c1ccccc21.O=[N+]([O-])c1cc([N+](=O)[O-])c(O)c([N+](=O)[O-])c1,inactive: 4.33%
15,COc1cc(C2NCCC3(OCCO3)C2(C)C)cc(OC)c1OC.O=[N+]([O-])c1cc([N+](=O)[O-])c(O)c([N+](=O)[O-])c1 (centres undefined),inactive: 14%
16,CC1CCC(C(C)C)C(OP(=O)(Nc2ccccn2)c2ccccc2)C1 (centres undefined),inactive: -10.2%
17,O=C(/C=C/c1ccccc1)OC1CN2CCC1CC2 (centres undefined),inactive: -0.96%
18,CCOC(=O)C(CC)C1=NC(C)(C)Cc2ccccc21.O=[N+]([O-])c1cc([N+](=O)[O-])c(O)c([N+](=O)[O-])c1 (centres undefined),inactive: -10.3%
19,CN1CCCCC1COC(=O)C1(O)c2ccccc2CCc2ccccc21 (centres undefined),inactive: -1.12%
20,COc1ccccc1OP(C)(=O)Nc1c(C)cccc1C (centres undefined),inactive: 4.54%
